PubChem BioAssay AID504761 – Drosophila RNAi Screening Center – 2011
Purpose: 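Fly genes whose silencing reduces dengue virus type 2 infection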 (primary screen). System: D.Mel-2 cells from Drosophila. Reagents: long dsRNA against Drosophila genes. Challenge: infection with dengue virus type 2; dose and infection time not stated. Detection: 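Cells stained for dengue envelope protein and imaged; percent of infected cells per well on duplicate plates, ranked by infection, with stained nuclei counted for cell number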. Reading the numbers: infection score: higher = more virus-infected cells; cell count: higher = more cells in the well. Active means: 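Very low infection ranking in both replicate wells (chance probability at most 0.065), then a retest showing infection dropped 1.5-fold or more at p below 0.05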. Calls: active = confirmed: knock-down lowers infection; inactive = not picked or not confirmed.
The deposit covers about 22,000 reagents; below is an unselected part of those that have a named target and a result. Over the whole deposit, 116 (0.52%) got an active call. 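Calls depend on retest data that are not deposited; infection was ranked per plate without normalising between plates; the unit of the infection score is not given.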 The raw values are shown without normalisation. The numbers tell different reagents against one gene apart. A plus sign joins genes that one reagent is predicted to hit. The record does not give: the amount of reagent, the time to read-out.

no.	predicted target	dsRNA no.	infection score, replicate 1	infection score, replicate 2	cell count, replicate 1	cell count, replicate 2	activity call
1	sut2 (sugar transporter 2)	1	31.9	12.3	4449	5836	inactive
2	CG14304	1	3.27	7.47	6247	6051	inactive
3	CG31087	1	2.31	7.99	6405	4457	inactive
4	Mlp84B (Muscle LIM protein at 84B)	1	1.7		6716	416	inactive
5	Rfx	1	9.34	21.6	6756	5514	inactive
6	eIF3c (eukaryotic translation initiation factor 3 subunit c)	1	9.67	10.5	3010	1894	inactive
7	Tdc1 (Tyrosine decarboxylase 1)	1	0.11	0.02	6519	6354	active
8	DIP-epsilon (Dpr-interacting protein epsilon)	1	2.22	3.33	6035	6906	inactive
9	DIP-epsilon (Dpr-interacting protein epsilon)	2	4.59	7.22	6630	6430	inactive
10	DIP-epsilon (Dpr-interacting protein epsilon)	3	13.9	23.3	6280	6170	inactive
11	Spn42De (Serpin 42De)	1	12.2	18.4	3918	6128	inactive
12	Spn42De (Serpin 42De)	2	13	7.19	5689	6354	inactive
13	Gtpx	1	4.67	9.34	6573	4862	inactive
14	Gtpx	2	2.24	6.29	6570	7165	inactive
15	CG11656	1	12.4	30.2	3678	5057	inactive
16	CG11656	2	6.79	0.64	1178	313	inactive
17	CG12885	1	1.24	4.08	6778	1496	inactive
18	CG12885	2	4.53	6.48	6563	6530	inactive
19	CG14072	1	8.47	3.86	5551	6831	inactive
20	E(spl)mdelta-HLH (Enhancer of split mdelta, helix-loop-helix)	1	8.19	20.6	6590	3743	inactive
21	Decay (Death executioner caspase related to Apopain/Yama)	1	3.37	2.96	6409	6898	inactive
22	CG31556 (retired record)	1	4.98	5.51	6285	5722	inactive
23	CG31556 (retired record)	2	4.75	19.7	6294	5657	inactive
24	CG31556 (retired record)	3	3.57	8.33	6109	6149	inactive
25	Gmppa (GDP-mannose pyrophosphorylase A)	1	7.93	9.57	6409	6580	inactive
26	Gmppa (GDP-mannose pyrophosphorylase A)	2	17.9	24.8	5963	5567	inactive
27	Np (Notopleural)	1		16.5	421	5574	inactive
28	Np (Notopleural)	2	8.37	10.7	5865	6053	inactive
29	Ilp7 (Insulin-like peptide 7)	1	5.99	12.2	6307	6247	inactive
30	mRpL18 (mitochondrial ribosomal protein L18)	1	5.03	14.2	6240	6051	inactive
31	CG14711 + Zaf1	1	2.48	4.06	6291	5714	inactive
32	CG14711 + Zaf1	2	6.27	13.4	6359	6005	inactive
33	CG32835 (retired record)	1	7.34	7.37	6998	6374	inactive
34	CG32835 (retired record)	2	18.7	8.61	5780	5612	inactive
35	CG2129	1	2.55	2.51	6341	6742	inactive
36	CG2129	2	3.26	5.07	5958	5861	inactive
37	Glo1 (Glyoxalase 1)	1	2.48	9.38	6570	6398	inactive

Active calls, of those listed so far:
predicted target	dsRNA no.	infection score, replicate 1	infection score, replicate 2	cell count, replicate 1	cell count, replicate 2	activity call
Tdc1 (Tyrosine decarboxylase 1)	1	0.11	0.02	6519	6354	active

Additional records:
no.	predicted target	dsRNA no.	infection score, replicate 1	infection score, replicate 2	cell count, replicate 1	cell count, replicate 2	activity call
38	beta4GalT7 (beta-4-galactosyltransferase 7)	1	0.7	1.4	6032	6774	inactive
39	COX6CL (Cytochrome c oxidase subunit 6C-like)	1	2.85	1.61	5799	5829	inactive
40	srw (shrew)	1	2.92	1.13	5818	6001	inactive
41	CG33969	1	8.9	2.56	6278	6023	inactive
42	kst (karst)	1	10.4	10.7	5743	3693	inactive
43	CG15213	1	2.05	1.38	6098	5929	inactive
44	Ptth (Prothoracicotropic hormone)	1	12.7	2.53	5973	5888	inactive
45	CG42446 + CG17931	1	13.3		2292	434	inactive
46	CG13308	1	1.19	1.77	6069	6441	inactive
47	Mtch	1	26.5	9.37	5245	5881	inactive
48	snoRNA:Me28S-C3420b + RpS11	1	16.2	9.61	5392	6402	inactive
49	CG3092	1	5.2	29.7	6498	5118	inactive
50	CG3092	2	3.28	2.5	6100	5687	inactive
51	maf-S	1	2.64	2.1	6243	6101	inactive
52	CG31091	1	5.2	9.42	5194	6914	inactive
53	Cyp313b1 (Cytochrome P450 313b1)	1	13.1	27	6476	6643	inactive
54	CG11122	1	4.09	2.5	6306	6524	inactive
55	CG11122	2	8.18	2.47	5492	6552	inactive
56	CG13659	1	3.26	14	6188	6075	inactive
57	CG13659	2	9.06	0.26	1644	391	inactive
58	Cpr66Cb (Cuticular protein 66Cb)	1	1.34	1.76	5906	6490	inactive
